Measured values from several laboratories, pooled; numbers as filed in NIAID ChemDB.

Shared fields: tests in culture; organism: Mycobacterium tuberculosis

MIC50, MIC90 and the like: level of inhibition, or share of isolates inhibited. Blank or dashed fields: not listed here. Percent inhibition refers to the dose given; in toxicity tests it is the harm to the cells. ECn: concentration that inhibits the pathogen or its effect by n%. Lines come from different laboratories, so protocols vary. MIC bound: limit read from a one-dose screen.

compound,strain,cells,read-out,changes,method,tested at,value
CC(C1=C(CCN(C)C)Cc2ccccc21)c1ccccn1,H37Ra,,MIC,,,,64 µg/mL
OC[C@@H](O)[C@@H](O)[C@H](O)[C@@H](O)c1nc2ccccc2[nH]1,H37Rv,,inhibition,,BACTEC,6.25 µg/mL,0%
COc1c2c(c(OC)c3ccccc13)CN(c1ccccc1Cl)C(=N)C2,H37Rv,,MIC,Lux,luminescence,,15.92 µM
Ic1cn[nH]c1,H37Rv,,MIC90,,resazurin,,>250 µg/mL
N/C(=N\N=C\c1ccc(Cl)cc1)c1ccncc1,1054,,MIC,,,,64 µg/mL
Cc1cc2c(cc1C)[n+](=O)c(N1CCN(c3ccc([N+](=O)[O-])cc3)CC1)c(C#N)n2[O-],H37Rv,,MIC,,,,>0.2 µg/mL
NC(=O)c1cnccn1,KK11-20,,MIC,,,,>200 µg/mL
NCCCc1ccc2c(c1)oc1ccccc12,H37Rv,,MIC bound,,BACTEC,,>12.5 µg/mL
CC(C)OC(=O)C1(C(=O)OC(C)C)C[C@H]2CNC[C@H]2c2c1[nH]c1ccccc21,H37Ra,,MIC,,,,32 µg/mL
CCOC(=O)c1ccc(N2Cc3c(c(OC)c4ccccc4c3OC)CC2=N)cc1,H37Rv,,MIC,Lux,luminescence,,12.43 µM
CCOC(=O)NNC(=O)C(=O)NNC(=O)OCC,H37Rv,,MIC bound,,BACTEC,,>12.5 µg/mL
CN1CCC(OC(c2ccccc2)c2ccccc2)CC1,H37Ra,,MIC,,,,64 µg/mL
N=c1cc2c(cn1-c1ccccc1Br)C(=O)c1ccccc1C2=O,H37Rv,,MIC,Lux,luminescence,,1.85 µM
COc1ccccc1/C=N/N=C(\N)c1ccncc1,1481,,MIC,,,,32 µg/mL
CN1C/C(=C\c2ccccc2[N+](=O)[O-])C(=O)/C(=C/c2ccccc2[N+](=O)[O-])C1.Cl,H37Rv,,MIC bound,,BACTEC,,>12.5 µg/mL
COc1cc(/C=N/N=C(\N)c2ccncc2)cc(OC)c1,1481,,MIC,,,,256 µg/mL
Cc1nn(-c2ccccc2)c2c1C(c1ccc(Cl)cc1)c1c(nc(=S)[nH]c1N)O2,H37Rv,,inhibition,,,62.5 µg/mL,97%
FC(F)(F)c1cc(Nc2nc(-c3ccccc3)nc3c2C(=NCc2ccco2)OC3=NCc2ccco2)ccc1Cl,H37Rv,,inhibition,,BACTEC,12.5 µg/mL,3%
N=c1cc2c(cn1-c1ccc(Br)cc1)C(=O)c1ccccc1C2=O,H37Rv,,MIC,Lux,luminescence,,0.65 µM
CCCCCNc1ccc(C(N)=S)cc1,,,MIC,,,,150 µM
Ic1cn[nH]c1.[Cl][Pd][Cl].c1ccc(P(c2ccccc2)c2ccccc2)cc1,H37Rv,,MIC90,,resazurin,,7.61 µM
COC(=O)[C@@]12Oc3ccc(-c4ccc5c(c4O)C(O)=C4C(=O)C[C@H](C)[C@@H](O)[C@]4(C(=O)OC)O5)c(O)c3C(O)=C1C(=O)C[C@H](C)[C@H]2O,H37Rv,,MIC,,BACTEC,,≥12.8 µg/mL
Cc1ccc(C2CC(c3ccc([N+](=O)[O-])cc3)C3=C(O2)C(=O)c2ccccc2C3=O)cc1,H37Rv,,MIC,,,,>100 µg/mL
O=C1C(N=Nc2ccc(Cl)cc2)Sc2nc3ccccc3n21,H37Rv,,inhibition,,BACTEC,12.5 µg/mL,44%
CC[C@H]1OC(=O)[C@H](C)[C@@H](O[C@H]2C[C@@](C)(OC)[C@@H](O)[C@H](C)O2)[C@H](C)[C@@H](O[C@@H]2O[C@H](C)C[C@H](N(C)C)[C@H]2O)[C@](C)(OC)C[C@@H](C)C(=O)[C@H](C)[C@@H](O)[C@]1(C)O,S-6M (susceptible),,MIC,,,,>8 µg/mL
NC(=O)C(=CNC(=S)c1ccncc1)C(N)=O,H37Rv,,inhibition,,resazurin,6.25 µg/mL,-133%
CC(C)OC(=O)C1(C(=O)OC(C)C)C[C@H](C=O)[C@H](C[N+](=O)[O-])c2c1[nH]c1ccccc21,H37Ra,,MIC,,,,256 µg/mL
CCC(C)Nc1ccc(C(N)=S)cc1,,,MIC,,,,425 µM
Oc1cccc2c1[C@H](O)[C@H]1O[C@H]1C21Oc2cccc3cccc(c23)O1,,,MIC,,,,>200 µg/mL
Cc1nn(-c2ccccc2)c2c1C(c1ccc(Cl)cc1)C(C#N)=C(N)O2,H37Rv,,inhibition,,,62.5 µg/mL,29%
NC(=S)NNC(=O)c1ccc([N+](=O)[O-])cc1,H37Rv,VERO,MIC,,BACTEC,,12.5 µg/mL
CNc1ccc(C(N)=S)cc1,,,MIC,,,,425 µM
Cc1ccc(-c2c(C(O)c3ccccc3)c3cc(C#N)ccn3c2-c2ccc(C)cc2)cc1,H37Rv,VERO,MIC,,,,3.13 µg/mL
COc1cc(C(=O)CO[C@H]2CC(C)=CC[C@@]3(C)CC[C@@](O)(C(C)C)[C@H]23)ccc1O,,,EC90,,broth dilution,,8 µg/mL
CN(C)CCOC(c1ccccc1)c1ccccc1,H37Ra,,MIC,,,,64 µg/mL
N#Cc1c(N2CCN(c3ccc([N+](=O)[O-])cc3)CC2)[n+](=O)c2ccc(-c3ccc([N+](=O)[O-])cc3)cc2n1[O-],H37Rv,,EC50,,,,<6.25 µg/mL
Cc1nn(-c2ccccc2)c2c1C(c1ccc(O)cc1)C(C#N)=C(N)O2,,,inhibition,,,62.5 µg/mL,11%
CCCCC(O)c1c(-c2ccccc2)c(-c2ccccc2)n2ccc(C#N)cc12,H37Rv,VERO,inhibition,,,6.25 µg/mL,99%
CN1CCC(=C2C3=C(CCc4ccccc42)SCC3)CC1,H37Rv,,MIC,,,,32 µg/mL
Cc1nc2ccccc2n1COC(Cn1ccnc1)c1ccc(Cl)cc1Cl,H37Rv,,inhibition,,resazurin,6.25 µg/mL,-20%
CCCNc1ccc(C(N)=S)cc1,,,MIC,,,,425 µM
CC1=NN(C(=O)c2ccccc2)C(=O)C1N=Nc1ccccc1C(=O)O,H37Rv,,MIC,,BACTEC,,≥12.5 µg/mL
N/C(=N\N=C\c1ccccc1Cl)c1ccncc1,1342,,MIC,,,,16 µg/mL
CN1CCCCC(n2nc(Cc3ccc(Cl)cc3)c3ccccc3c2=O)CC1,H37Ra,,MIC,,,,16 µg/mL
CC1=[N+]([O-])CC2c3c([nH]c4ccccc34)C(C(=O)OC(C)C)(C(=O)OC(C)C)CC12,H37Ra,,MIC,,,,256 µg/mL
CN1CCC[C@@H]1CCO[C@](C)(c1ccccc1)c1ccc(Cl)cc1,H37Ra,,MIC,,,,8 µg/mL
Cc1cc2c(c(O)c1-c1c(C)cc(O)c3c1C(=O)C=CC3=O)C(=O)CC[C@H]2O,,,MIC,,,,50 µg/mL
CCC1CN2CCc3cc(OC)c(OC)cc3C2CC1CC1c2cc(OC)c(OC)cc2CCN1C(=O)C1CCCN1C(=O)OCc1ccccc1,H37Rv,,inhibition,,BACTEC,12.5 µg/mL,9%
N=c1cc2c(cn1-c1ccccc1)C(=O)c1ccccc1C2=O,H37Rv,,MIC,Lux,luminescence,,11.21 µM
CC1=NOC(=O)C1C(C)(C)C1C(=O)ON=C1C,H37Rv,,MIC bound,,resazurin,,>6.25 µg/mL
Cc1nn(-c2ccccc2)c2c1C(c1cccc([N+](=O)[O-])c1)c1c(nc(=S)[nH]c1N)O2,H37Rv,,inhibition,,,62.5 µg/mL,33%
Cc1cc2c(cc1C)[n+](=O)c(C#N)c(Cl)n2[O-],H37Rv,,inhibition,,,6.25 µg/mL,99%
Cc1ccc(C)c(/C=N/N=C(\N)c2ccncc2)c1,1481,,MIC,,,,256 µg/mL
N=c1cc2c(cn1-c1ccc(Cl)cc1)C(=O)c1ccccc1C2=O,H37Rv,,MIC,Lux,luminescence,,1.16 µM
COCCn1c2nc(=O)n(-c3ccccc3)c(=O)c-2nc2c1CCCC2,H37Rv,,inhibition,,BACTEC,12.5 µg/mL,0%
N#Cc1c(N)[n+]([O-])c2ccc(Cl)cc2[n+]1[O-],H37Rv,,inhibition,,,6.25 µg/mL,100%
Cc1c(N=Nc2ccc(Br)cc2)c(-c2ccccc2)nn1C(=S)S,H37Rv,,MIC,,,,12.5 µg/mL
CN(C)c1ccc(C(N)=S)cc1,,,MIC,,,,350 µM
CO[C@H]1/C=C/O[C@@]2(C)Oc3c(C)c(O)c4c(O)c(c(/C=N/N5CCN(C)CC5)c(O)c4c3C2=O)NC(=O)/C(C)=C\C=C\[C@H](C)[C@H](O)[C@@H](C)[C@@H](O)[C@@H](C)[C@H](OC(C)=O)[C@@H]1C,90 drug-resistant isolates,,EC50,,,,>100 µg/mL
CC1=CC[C@@]2(C)CC[C@@](O)(C(C)C)[C@@H]2[C@@H](OCC(=O)c2ccc(O)cc2)C1,,,EC90,,broth dilution,,2 µg/mL
CC1COc2c(C3(N)CC3)c(F)cc3c(=O)c(C(=O)O)cn1c23,25 strains,,MIC90,,,,3.13 µg/mL
COc1ccc(C2CCC3=C(O2)C(=O)c2ccccc2C3=O)cc1,H37Rv,,MIC,,,,>100 µg/mL
CCC1CN(c2c(F)cc3c(=O)c(C(=O)O)cn([C@@H]4C[C@@H]4F)c3c2OC)CCN1,47 (RFP-resistant),,MIC,,,,1 µg/mL
Cc1ccc(-c2c(Br)c3cc(C#N)ccn3c2-c2ccc(C)cc2)cc1,H37Rv,,inhibition,,,6.25 µg/mL,52%
CC1=CCC2(C)CCC(O)(C(C)C)C2C(OC(=O)c2ccccc2)C1,H37Rv,,MIC,,,,0.69 µg/mL
Cn1nnc(-c2ccc(-c3ccc(N4C[C@H](CO)OC4=O)cc3F)cn2)n1,61 isolates (isoniazid rifampin-susceptible),,MIC50,,,,0.25 µg/mL
Cc1ccc(C2CCC3=C(O2)C(=O)c2ccccc2C3=O)cc1,H37Rv,,MIC,,,,>100 µg/mL
Cc1nn(-c2ccccc2)c2c1C(c1cccc(Br)c1)c1c(nc(=O)[nH]c1N)O2,H37Rv,,inhibition,,,62.5 µg/mL,9%
NS(=O)(=O)c1ccc(CNC(=O)c2ccc(C(=O)NCc3ccc(S(N)(=O)=O)cc3)cc2)cc1,H37Rv,,inhibition,,,6.25 µg/mL,9%
C[C@@H]1CN(c2c(F)c(N)c3c(=O)c(C(=O)O)cn(C4CC4)c3c2F)C[C@H](C)N1,S-5M (susceptible),,MIC,,,,0.2 µg/mL
CC(C)N.CC(C)N(C(=S)S)C(C)C,H37Rv,,MIC,,BACTEC,,128 µg/mL
N/C(=N\N=C\c1ccccc1)c1ccncc1,1054,,MIC,,,,32 µg/mL
CC(C)CC(O)c1c(-c2ccccc2)c(-c2ccccc2)n2ccc(C#N)cc12,H37Rv,,inhibition,,,6.25 µg/mL,0%
Cc1nn(-c2ccccc2)c2c1C(c1ccccc1Cl)c1c(nc(=O)[nH]c1N)O2,H37Rv,,inhibition,,,62.5 µg/mL,38%
N#Cc1ccn2c(-c3ccccc3)c(-c3ccccc3)c(C(O)C3CCCCC3)c2c1,H37Rv,,inhibition,,,6.25 µg/mL,90%
NC1CN(c2c(F)cc3c(=O)c(C(=O)O)cn(C4CC4)c3c2Cl)CC12CC2,50 (RFP-resistant),,MIC,,,,0.78 µg/mL
NC(=S)c1cnccn1,KK11-20,,MIC,,,,100 µg/mL
CC(C)OC(=O)C1(C(=O)OC(C)C)CC2C(C)NCC2c2c1[nH]c1ccccc21,H37Ra,,MIC,,,,16 µg/mL
O=[N+]([O-])c1cn[nH]c1,H37Rv,,MIC90,,resazurin,,>250 µg/mL
Cc1oc(C)c2c1C(=O)c1ccccc1C2=O,H37Rv,,MIC bound,,BACTEC,,>12.5 µg/mL
O=C1C2=C(OC(c3ccc(F)cc3)CC2)C(=O)c2ccccc21,H37Rv,,MIC,,,,>100 µg/mL
CCc1ccc(NCc2cc(OC)c(OC)c(OC)c2)cc1,H37Rv,,MIC bound,,BACTEC,,>12.8 µg/mL
CC(C)(C)C(O)c1c(-c2ccccc2)c(-c2ccccc2)n2ccc(C#N)cc12,H37Rv,VERO,MIC,,,,6.25 µg/mL
CC1=NN(c2ccccc2)C(=O)C1N=Nc1ccc(S(=O)(=O)Nc2nnc(C)s2)cc1,EMB-R,,MIC,,,,3.1 µg/mL
CN[C@@H]1[C@H](O[C@H]2[C@H](O[C@H]3[C@H](O)[C@@H](O)[C@H](N=C(N)N)[C@@H](O)[C@@H]3N=C(N)N)O[C@@H](C)[C@]2(O)C=O)O[C@@H](CO)[C@H](O)[C@H]1O,88 drug-resistant isolates,,EC50,,,,<100 µg/mL

The first 5 rows once more:

compound,strain,cells,read-out,changes,method,tested at,value
CC(C1=C(CCN(C)C)Cc2ccccc21)c1ccccn1,H37Ra,,MIC,,,,64 µg/mL
OC[C@@H](O)[C@@H](O)[C@H](O)[C@@H](O)c1nc2ccccc2[nH]1,H37Rv,,inhibition,,BACTEC,6.25 µg/mL,0%
COc1c2c(c(OC)c3ccccc13)CN(c1ccccc1Cl)C(=N)C2,H37Rv,,MIC,Lux,luminescence,,15.92 µM
Ic1cn[nH]c1,H37Rv,,MIC90,,resazurin,,>250 µg/mL
N/C(=N\N=C\c1ccc(Cl)cc1)c1ccncc1,1054,,MIC,,,,64 µg/mL